Source: publication PMC8121815 (Nature Communications, 2021)

Columns and labels:
hTOM70 mutant E477A = experiment: ITC, hTOM70 mutant E477A
hTOM70 mutant E549A = experiment: ITC, hTOM70 mutant E549A
hTOM70 mutant D545A = experiment: ITC, hTOM70 mutant D545A

CC[C@H](C)[C@H](N)C(=O)N[C@H](C(=O)N[C@@H](CC(C)C)C(=O)N[C@@H](CCCNC(=N)N)C(=O)N[C@@H](CC(C)C)C(=O)NCC(=O)N[C@@H](CO)C(=O)N1CCC[C@H]1C(=O)N[C@@H](CC(C)C)C(=O)N[C@@H](CO)C(=O)N[C@@H](CC(C)C)C(=O)N[C@@H](CC(N)=O)C(=O)N[C@@H](CCSC)C(=O)N[C@@H](C)C(=O)N[C@@H](CCCNC(=N)N)C(=O)N[C@@H](CCCCN)C(=O)N[C@H](C(=O)N[C@@H](CC(C)C)C(=O)N[C@@H](CC(N)=O)C(=O)N[C@@H](CO)C(=O)N[C@@H](CC(C)C)C(=O)N[C@@H](CCC(=O)O)C(=O)N[C@@H](CC(=O)O)C(=O)N[C@@H](CCCCN)C(=O)N[C@@H](C)C(=O)N[C@@H](Cc1ccccc1)C(=O)N[C@@H](CCC(N)=O)C(=O)O)[C@@H](C)O)[C@@H](C)CC [C-peptide]
thermodynamic nature of binding (hTOM70 mutant E477A): endothermic | decrease in affinity compared with the wild-type protein (hTOM70 mutant E477A; 25 °C, pH = 8.0): ~ 267 folds | impact of mutation on binding (hTOM70 mutant E549A): only had a moderate impact on binding | thermodynamic nature of binding (hTOM70 mutant E549A): endothermic | thermodynamic nature of binding (hTOM70 mutant D545A): endothermic | decrease in affinity compared with the wild-type protein (hTOM70 mutant D545A; 25 °C, pH = 8.0): ~ 52 folds
